Experimental data taken from article PMC6946549 (Biochemistry, 2019).

B1: ChsH1 (chain alpha of the ChsH1-ChsH2-Ltp2 complex) (enzyme)
chain: not shown
B2: ChsH1-ChsH2-Ltp2 protomer (alpha-beta-gamma) (complex)
chain 1: [about 120 residues omitted here]
chain 2: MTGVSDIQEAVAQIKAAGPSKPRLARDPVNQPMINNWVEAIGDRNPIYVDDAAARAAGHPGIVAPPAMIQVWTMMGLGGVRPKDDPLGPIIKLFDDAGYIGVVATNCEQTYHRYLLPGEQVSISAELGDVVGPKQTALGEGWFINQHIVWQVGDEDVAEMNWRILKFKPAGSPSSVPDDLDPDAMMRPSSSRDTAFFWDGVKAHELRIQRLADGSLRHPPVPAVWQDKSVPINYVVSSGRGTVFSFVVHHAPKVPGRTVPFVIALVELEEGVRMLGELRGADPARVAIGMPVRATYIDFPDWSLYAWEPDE
chain 3: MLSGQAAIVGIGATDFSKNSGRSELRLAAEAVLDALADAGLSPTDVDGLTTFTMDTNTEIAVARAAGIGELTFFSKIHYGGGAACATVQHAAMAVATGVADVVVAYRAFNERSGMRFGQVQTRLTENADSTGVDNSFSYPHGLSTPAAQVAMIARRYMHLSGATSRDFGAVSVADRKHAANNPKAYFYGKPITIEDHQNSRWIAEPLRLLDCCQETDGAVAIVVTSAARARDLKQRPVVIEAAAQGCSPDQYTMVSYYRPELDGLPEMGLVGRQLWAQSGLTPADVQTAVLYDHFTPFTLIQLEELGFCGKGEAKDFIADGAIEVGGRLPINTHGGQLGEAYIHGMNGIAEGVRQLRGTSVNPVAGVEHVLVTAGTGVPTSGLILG

How the values were obtained:
[1] = target: ChsH2 (chain beta of the ChsH1-ChsH2-Ltp2 complex) (Mycobacterium tuberculosis H37Rv); assay: SAXS
[2] = target: the molecule itself; assay: AUC

| Binder | binding result [1] | stoichiometry N [2] |
| --- | --- | --- |
| B1 | binds |  |
| B2 |  | 2 |
